Values of other authors in patent US20100311767A1 (priority 2007, published 2010).

What was measured:
[1] = target: P/Q type voltage-gated presynaptic calcium channel (P type); conditions: cited from earlier work
[2] = target: P/Q type voltage-gated presynaptic calcium channel (Q type); conditions: cited from earlier work

With ω-agatoxin IVA as the substance, how does the Kd [1] read?
Its Kd is 1 to 3 nM.

What about the Kd [2] of the same substance?
Its Kd is 100 to 200 nM.
